Pooled drug test results. Numbers come from NIAID ChemDB, via PubChem.

All rows: enzyme or target tests

ICn: concentration for n% inhibition. Conditions beyond the fields shown may differ between rows. Blank or dashed fields: not listed here. Percent inhibition refers to the dose given; in toxicity tests it is the harm to the cells.

compound	measure	strain	protein	agent	tested at	method	result
O=C(Nc1cccc([N+](=O)[O-])c1)c1ccc2ccccc2c1O	IC50	-	Thiamin phosphate synthase	Mycobacterium tuberculosis	-	-	100 µg/mL
COc1c(N2CCN(CN3C(=O)C(=Nc4ccc(S(=O)(=O)Nc5ncccn5)cc4)c4cc(Cl)ccc43)C(C)C2)c(F)cc2c(=O)c(C(=O)O)cn(C3CC3)c12	IC50	-	Gyrase	Mycobacterium tuberculosis	-	-	6 µM
O=C1C=CC(O)(c2nc3ccccc3s2)C=C1	IC50	H37Rv	Thioredoxin reductase	Mycobacterium tuberculosis	-	-	28 µM
Cc1cc(O)c(C(C)C)cc1N=Cc1cc([N+](=O)[O-])ccc1O	IC50	-	Thiamin phosphate synthase	Mycobacterium tuberculosis	-	-	34 µg/mL
Cc1ccc(-n2cc(Cn3nc(-c4ccccc4)c4c3CCN(C(=O)Nc3ccccc3)C4)nn2)cc1	IC50	-	Pantothenate synthetase	Mycobacterium tuberculosis	-	absorbance	1.54 µM
COc1c(N2CCN(Cn3c(O)c(N=NC(N)=O)c4cc(F)ccc43)C(C)C2)c(F)cc2c(=O)c(C(=O)O)cn(C3CC3)c12	IC50	-	Gyrase	Mycobacterium tuberculosis	-	-	4 µM
CCCCCCCCCCCCCCCCN(C(=O)Nc1ccc(Cl)cc1)[C@@H](CC(=O)OCC)C1O[C@@H]2OC(C)(C)O[C@@H]2[C@H]1OC	inhibition	-	Alpha-glucosidase	Mycobacterium aurum	100 µM	-	31.5%
O=C1C=CC(O)(c2nccs2)C=C1	IC50	H37Rv	Thioredoxin reductase	Mycobacterium tuberculosis	-	-	84 µM
O=c1[nH]c(=O)c2[nH]c(=O)c(=O)n(C[C@H](O)[C@H](O)[C@H](O)CO)c2[nH]1	Ki	-	Lumazine synthase	Mycobacterium tuberculosis	-	-	1.4 µM
C/C(=N/N=C(N)N)c1cc(NC(=O)CCC(=O)Nc2cc(/C(C)=N\N=C(N)N)cc(/C(C)=N/N=C(N)N)c2)cc(/C(C)=N/N=C(N)N)c1	IC50	-	Protein kinase B	Mycobacterium tuberculosis	-	kinase activity / radiometric	0.201 µM
O=C(O)[C@]1(O)C=C(c2ccccc2[N+](=O)[O-])[C@@H](O)[C@H](O)C1	IC50	-	Type II dehydroquinase	Mycobacterium tuberculosis	-	-	109 µM
COc1c(N2CCN(CN3C(=O)C(=Nc4ccc(S(=O)(=O)Nc5ncccn5)cc4)c4cc(C)ccc43)C(C)C2)c(F)cc2c(=O)c(C(=O)O)cn(C3CC3)c12	IC50	-	Gyrase	Mycobacterium tuberculosis	-	-	3 µM
CCOC(=O)C[C@@H](C1O[C@@H]2OC(C)(C)O[C@@H]2[C@H]1OC)N(C(=O)Nc1ccc(Cl)cc1)C1CC1	inhibition	-	Alpha-glucosidase	Mycobacterium aurum	100 µM	-	4.3%
O=C1CN(Cc2ccc3ccccc3c2)S(=O)(=O)c2ccccc21	IC50	-	N-acetyltransferase	Mycobacterium smegmatis	-	-	>100 µM
O=C(Nc1ccccc1)N1CCc2c(c(-c3ccccc3)nn2Cc2cn(-c3ccccc3Br)nn2)C1	IC50	-	Pantothenate synthetase	Mycobacterium tuberculosis	-	absorbance	3.54 µM
CO[C@H]1/C=C/O[C@@]2(C)Oc3c(C)c(O)c4c(=O)c(c5oc6cc(N7CCN(CC(C)C)CC7)cc(=O)c6nc5c4c3=C2O)NC(=O)/C(C)=C\C=C\[C@H](C)[C@H](O)[C@@H](C)[C@@H](O)[C@@H](C)[C@H](OC(C)=O)[C@@H]1C	IC50	N-265	RNA polymerase	Mycobacterium avium	-	-	0.2 µg/mL
O=C1C=CC(O)(c2ccccn2)C=C1	IC50	H37Rv	Thioredoxin reductase	Mycobacterium tuberculosis	-	-	861 µM
C/C(=N/NC(=N)N)c1cc(NC(=O)c2ccc(C(=O)Nc3cc(/C(C)=N\NC(=N)N)cc(/C(C)=N/NC(=N)N)c3)s2)cc(/C(C)=N/NC(=N)N)c1	IC50	-	Protein kinase B	Mycobacterium tuberculosis	-	kinase activity / radiometric	0.205 µM
COC(=O)[C@@H](NC(=O)NCCC(=O)N[C@H]1CCCCNC(=O)/C=C/[C@H](Cc2c[nH]c3ccccc23)NC1=O)C(C)C	IC50	-	Proteasome	Mycobacterium tuberculosis	-	substrate cleavage / fluorescence	17.25 µM
CCCCN(C(=O)Nc1ccc(F)cc1)[C@@H](CC(=O)OCC)C1O[C@@H]2OC(C)(C)O[C@@H]2[C@H]1Oc1ccccc1	inhibition	-	Alpha-glucosidase	Mycobacterium aurum	100 µM	-	49.3%
O=C1C=CC(O)(c2nc3ccccc3o2)C=C1	IC50	H37Rv	Thioredoxin reductase	Mycobacterium tuberculosis	-	-	50 µM
COc1c(N2CCN(Cn3c(O)c(N=NC(N)=O)c4cc(C)ccc43)C(C)C2)c(F)cc2c(=O)c(C(=O)O)cn(C3CC3)c12	IC50	-	Gyrase	Mycobacterium tuberculosis	-	-	4.5 µM
CC(C)(C)OC(=O)N1CCC2(CC1)CC(=O)c1ccc(OC[C@H](O)Cn3cc(-c4ccccc4)nn3)cc1O2	inhibition	-	DNA gyrase	Mycobacterium tuberculosis	30 µM	gel	51%
O=C(O)[C@]1(O)C=C(c2ccc3ccsc3c2)[C@@H](O)[C@H](O)C1	IC50	-	Type II dehydroquinase	Mycobacterium tuberculosis	-	-	0.85 µM
CC(=O)c1cccc(N2C(=O)C[C@@H](C3OC4OC(C)(C)OC4[C@H]3Oc3ccccc3)N(C3CC3)C2=O)c1	inhibition	-	Alpha-glucosidase	Mycobacterium aurum	100 µM	-	47%
Cc1ccc(-c2cn(C[C@@H](O)COc3ccc4c(c3)OC3(CCCCC3)CC4=O)nn2)cc1	inhibition	-	DNA gyrase	Mycobacterium tuberculosis	30 µM	gel	47%
O=C(O)[C@]1(O)C=C(c2csc3ccccc23)[C@@H](O)[C@H](O)C1	IC50	-	Type II dehydroquinase	Mycobacterium tuberculosis	-	-	13.2 µM
Cc1ccc(-n2sc(=O)n(Cc3ccc(F)cc3)c2=O)cc1	IC50	H37Rv	Alanine racemase	Mycobacterium tuberculosis	-	HPLC	0.13 µM
C[C@H]1COC2(CCN(c3nc(=O)c4cc(C(F)(F)F)cc([N+](=O)[O-])c4s3)CC2)O1	IC50	-	Cytochrome P450 2D6	Mycobacterium tuberculosis	-	fluorescence / absorbance	2.21 µM
NC(=O)c1c(NC(=O)Nc2ccc3c(c2)OCO3)sc2c(Cl)c(O)ccc12	inhibition	-	Alcohol dehydrogenase (ADH)	Mycobacterium tuberculosis	100 µM	absorbance	85%
COC1(c2nc3ccc(F)cc3s2)C=CC(=NS(=O)(=O)c2ccc(C)cc2)C=C1	IC50	H37Rv	Thioredoxin reductase	Mycobacterium tuberculosis	-	-	>1000 µM
CCCCCCCCCCCCN1C(=O)N(c2cccc(C(C)=O)c2)C(=O)C[C@H]1C1OC2OC(C)(C)OC2[C@H]1Oc1ccccc1	inhibition	-	Alpha-glucosidase	Mycobacterium aurum	100 µM	-	28.5%
NNC(=O)c1ccncc1	IC50	H37RV (INH 10 ug/mL-R)	Alpha-ketoglutarate dehydrogenase	Mycobacterium tuberculosis	-	-	>1000 µM
O=C(Nc1ccccc1)N1CCc2c(c(-c3ccccc3)nn2Cc2cn(-c3ccc(C(F)(F)F)cc3)nn2)C1	IC50	-	Pantothenate synthetase	Mycobacterium tuberculosis	-	absorbance	5.04 µM
Cc1[nH+]c2ccccc2c(=O)n1NC(=O)C(=O)N/N=C/c1ccc(O)c(O)c1O	IC50	-	Protein kinase B	Mycobacterium tuberculosis	-	kinase activity / radiometric	0.337 µM
CCCCCCCCCCCCN(C(=O)Nc1ccc(Cl)cc1)[C@@H](CC(=O)OCC)C1O[C@@H]2OC(C)(C)O[C@@H]2[C@H]1OC	inhibition	-	Alpha-glucosidase	Mycobacterium aurum	100 µM	-	93.5%
O=C(Nc1ccccc1)N1CCc2c(c(-c3ccccc3)nn2Cc2cn(-c3ccc(I)cc3)nn2)C1	IC50	-	Pantothenate synthetase	Mycobacterium tuberculosis	-	absorbance	1.04 µM
O=c1[nH]c(=O)c2c([nH]1)n(C[C@H](O)[C@H](O)[C@H](O)CO)c(=O)c(=O)n2CCCCOP(=O)(O)O	Ki	-	Lumazine synthase	Mycobacterium tuberculosis	-	-	0.036 µM
CCCCCCCC/C=C\CCCCCCCCN(C(=O)NCc1ccccc1)[C@@H](CC(=O)OCC)C1O[C@@H]2OC(C)(C)O[C@@H]2[C@H]1OC	inhibition	-	Alpha-glucosidase	Mycobacterium aurum	100 µM	-	1.4%
O=C(O)[C@]1(O)C=C(c2ccc3cc[nH]c3c2)[C@@H](O)[C@H](O)C1	IC50	-	Type II dehydroquinase	Mycobacterium tuberculosis	-	-	>300 µM
CCCCCCCCCCCCCCCCN1C(=O)N(c2ccccc2)C(=O)C[C@H]1C1OC2OC(C)(C)OC2[C@H]1OC	inhibition	-	Alpha-glucosidase	Mycobacterium aurum	100 µM	-	5%
O=C(Nc1cccc([N+](=O)[O-])c1)c1cc2ccccc2cc1O	IC50	-	Thiamin phosphate synthase	Mycobacterium tuberculosis	-	-	70 µg/mL
O=C1CC2(CCCCC2)Oc2cc(OC[C@H](O)Cn3cc(-c4ccccc4)nn3)ccc21	inhibition	-	DNA gyrase	Mycobacterium tuberculosis	30 µM	gel	68%
CCCCCCCC/C=C\CCCCCCCCN1C(=O)N(Cc2ccccc2)C(=O)C[C@H]1C1OC2OC(C)(C)OC2[C@H]1Oc1ccccc1	inhibition	-	Alpha-glucosidase	Mycobacterium aurum	100 µM	-	48.5%

The last 5 rows once more:

compound	measure	strain	protein	agent	tested at	method	result
O=C(O)[C@]1(O)C=C(c2ccc3cc[nH]c3c2)[C@@H](O)[C@H](O)C1	IC50	-	Type II dehydroquinase	Mycobacterium tuberculosis	-	-	>300 µM
CCCCCCCCCCCCCCCCN1C(=O)N(c2ccccc2)C(=O)C[C@H]1C1OC2OC(C)(C)OC2[C@H]1OC	inhibition	-	Alpha-glucosidase	Mycobacterium aurum	100 µM	-	5%
O=C(Nc1cccc([N+](=O)[O-])c1)c1cc2ccccc2cc1O	IC50	-	Thiamin phosphate synthase	Mycobacterium tuberculosis	-	-	70 µg/mL
O=C1CC2(CCCCC2)Oc2cc(OC[C@H](O)Cn3cc(-c4ccccc4)nn3)ccc21	inhibition	-	DNA gyrase	Mycobacterium tuberculosis	30 µM	gel	68%
CCCCCCCC/C=C\CCCCCCCCN1C(=O)N(Cc2ccccc2)C(=O)C[C@H]1C1OC2OC(C)(C)OC2[C@H]1Oc1ccccc1	inhibition	-	Alpha-glucosidase	Mycobacterium aurum	100 µM	-	48.5%